# Experimental data published in patent US20230357367A1 (GENERATE BIOMEDICINES, published 2023).
# Tests used:
# [1] = target: SARS-CoV-2 BA.1 spike trimer (recombinant, ACRO) (SARS-CoV-2); test: DELFIA, IgG titrated on coated spike trimer
# [2] = target: SARS-CoV-2 BA.2.12.1 spike trimer (recombinant) (SARS-CoV-2); test: DELFIA, IgG titrated on coated spike trimer
# [3] = target: SARS-CoV-2 BA.4.6 spike trimer (recombinant) (SARS-CoV-2); test: DELFIA, IgG titrated on coated spike trimer
# [4] = target: SARS-CoV-2 BQ.1 spike trimer (recombinant) (SARS-CoV-2); test: DELFIA, IgG titrated on coated spike trimer
# [5] = target: T1, SARS-CoV-2 BQ.1.1 spike trimer (recombinant) (SARS-CoV-2); test: DELFIA, IgG titrated on coated spike trimer
# [6] = target: T2, SARS-CoV-2 XBB.1.5 spike trimer (recombinant) (SARS-CoV-2); test: DELFIA, IgG titrated on coated spike trimer
# [7] = target: T3, SARS-CoV-2 BA.2 (parent) spike trimer (recombinant, in-house production) (SARS-CoV-2); test: DELFIA, IgG titrated on coated spike trimer
# [8] = target: T4, SARS-CoV-2 BA.4 spike trimer (recombinant) (SARS-CoV-2); test: SPR, Fab over anti-His-captured trimer, 25 C
# [9] = target: T1, SARS-CoV-2 BQ.1.1 spike trimer …; test: SPR, Fab over anti-His-captured trimer, 25 C
# [10] = target: T2, SARS-CoV-2 XBB.1.5 spike trimer …; test: SPR, Fab over anti-His-captured trimer, 25 C
# [11] = target: T3, SARS-CoV-2 BA.2 (parent) spike trimer …; test: SPR, Fab over anti-His-captured trimer, 25 C
# [12] = target: T5, SARS-CoV-2 BA.5 spike trimer (recombinant) (SARS-CoV-2); test: SPR, Fab over anti-His-captured trimer, 25 C
# [13] = target: T4, SARS-CoV-2 BA.4 spike trimer …; test: SPR, Fab over anti-His-captured trimer, 37 C
# [14] = target: T1, SARS-CoV-2 BQ.1.1 spike trimer …; test: SPR, Fab over anti-His-captured trimer, 37 C
# [15] = target: T2, SARS-CoV-2 XBB.1.5 spike trimer …; test: SPR, Fab over anti-His-captured trimer, 37 C
# [16] = target: T3, SARS-CoV-2 BA.2 (parent) spike trimer …; test: SPR, Fab over anti-His-captured trimer, 37 C
# [17] = target: T5, SARS-CoV-2 BA.5 spike trimer …; test: SPR, Fab over anti-His-captured trimer, 37 C
Binder,EC50 [1] [µg/mL],EC50 [2] [µg/mL],EC50 [3] [µg/mL],EC50 [4] [µg/mL],EC50 [5] [µg/mL],EC50 [6] [µg/mL],EC50 [7] [µg/mL],Kd [8] [nM],Kd [9] [nM],Kd [10] [nM],Kd [11] [nM],Kd [12] [nM],Kd [13] [nM],Kd [14] [nM],Kd [15] [nM],Kd [16] [nM],Kd [17] [nM]
"Reference Antibody (antibody, V domains shown) VH: EVQLVESGAEVKKPGESLKISCKGSGYTFTRYWIGWVRQMPGKGLEWMGIIYPGDSDTRYSPSFQGHVTISADKSISTAYLQWNSLKASDTAMYYCARLPQYCSNGVCQRWFDPWGQGTLVTVSS VL: EIVLTQSPSSVSASVGDRVTITCRASQGISSWLAWYQQKPGKAPKLLIYAASSLQSGVPSRFSGSGSGTDFTLTISSLQPEDFATYYCQQGNSFPYTFGQGTNLEIK",0.068,0.072,0.072,0.068,0.066,0.072,0.062,–,–,–,–,–,–,–,–,–,–
"Reference Antibody Fab (Fab, V domains shown) VH: EVQLVESGAEVKKPGESLKISCKGSGYTFTRYWIGWVRQMPGKGLEWMGIIYPGDSDTRYSPSFQGHVTISADKSISTAYLQWNSLKASDTAMYYCARLPQYCSNGVCQRWFDPWGQGTLVTVSS VL: EIVLTQSPSSVSASVGDRVTITCRASQGISSWLAWYQQKPGKAPKLLIYAASSLQSGVPSRFSGSGSGTDFTLTISSLQPEDFATYYCQQGNSFPYTFGQGTNLEIK",–,–,–,–,–,–,–,19,22,18.8,85.8,15.6,37.4,43.7,39.8,146,45.9
